# Percent effect of library compounds

Each number is a percent effect as filed.
How 0% and 100% were set is not recorded. Most values in the screen are low, and negative values occur.
The entries come from a sample that favours strong results.

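Whole-cell growth test on Mycobacterium tuberculosis, read after 4 days in a medium based on cholesterol and the lipid DPPC; the read-out is not stated. Tested at 500 µM. Direction is inferred from retests: higher values go with more growth inhibition. About 18,000 compounds were tested under these conditions; 5% (about 900) showed 50% or more at least once.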

| Compound | percent effect |
|---|---|
| `CC(C)Oc1ccccc1OCCN1CC(O)C1` | 3.816% |
| `CS(=O)(=O)N1CCN(C(=O)c2cc(C3CC3)on2)CC1` | 19.38% |
| `CC(=O)N1CCC(NC(=O)c2ccc(C#N)cc2)CC1` | 1.753% |
| `Cc1cnc(N2CCC(O)CC2)c(Br)c1` | 59.25% |
| `Nc1cc(-c2ccc3c(c2)OCCO3)n[nH]1` | -13.55% |
| `Cn1nccc1C(=O)Nc1sc2c(c1C#N)CCC2` | -2.712% |
| `O=S(=O)(CCN1CCCC1)c1ccccc1` | 21.65% |
| `O=C(c1ccc(Br)s1)N1CCN(c2ccccn2)CC1` | 12.72% |
| `CCC1CN(S(C)(=O)=O)c2ccccc2O1` (centres undefined) | 69.1% |
| `CCN(CC)CCOc1ccc(CN)cc1OC` | -14.93% |
| `CCc1ccc(CN(C)C(=O)c2cccc(N)n2)nc1` | 6.551% |
| `CC1(CNC(=O)c2ccc3c(c2)OCCO3)CCOC1` (centres undefined) | -4.456% |
| `N[C@@H]1C[C@H]1c1ccc2c(c1)OCCO2` | 50.13% |
| `NCC(O)c1ccc(Cl)c(F)c1` (centres undefined) | 37.43% |
| `O=c1ccc(Br)cn1Cc1noc(C2CC2)n1` | 69.9% |
| `CCN(Cc1cccc(F)c1)C(=O)CC1(N)CCC1` | -7.791% |
| `CC(O)(CNC1CCC2(CC1)OCCO2)c1ccsc1` (centres undefined) | -9.485% |
| `CCCNC(=O)CC1Sc2ccccc2NC1=O` (centres undefined) | -14.68% |
| `O=C(NC1=NCCS1)c1csc(Br)c1` | 18.48% |
| `Cn1ccnc1N1CCN(C(=O)C2=CCCCO2)CC1` | -2.131% |
| `O=S(=O)(CC(O)CNCc1ccccn1)c1cccs1` (centres undefined) | 27.18% |
| `CC(C)c1ccccc1OCC(O)CN(C)CCO` (centres undefined) | 61.34% |
| `NCCc1ccc2cc[nH]c2c1` | 13.92% |
| `OC1CCN(C2CCNCC2)C1` (centres undefined) | -0.8637% |
| `COC(CN)CC(N)=O` (centres undefined) | -1.831% |
| `CS(=O)(=O)Cc1ccc(C(=O)NCC2CCCO2)cc1` (centres undefined) | -4.427% |
| `NCc1ccnc(OCC(F)F)c1` | 15.76% |
| `CCCS(=O)(=O)NCCc1noc(C)n1` | -29.8% |
| `Cc1c[nH]c(C(=O)N2CCCN(CC(C)C)CC2)n1` | 10.52% |
| `CNS(=O)(=O)c1cccc(CN)c1` | 23.25% |
| `CCN(CC)CCCNC(=O)c1ccccc1` | -9.281% |
| `NC1CCCCC1=O` (centres undefined) | 1.775% |
| `NC(=O)c1cnc(NC(=O)CCC2CCCO2)s1` (centres undefined) | 3.173% |
| `O=C(CN1CCOCC1)NCCc1noc(C2CC2)n1` | -9.602% |
| `NC1CCN(c2ccccc2OC(F)F)C1` (centres undefined) | 38.68% |
| `OCCn1ncc2c1CN(CCc1ccccn1)C2` | -39.8% |
| `O=C(CCN1CCC[C@H]1CO)Nc1ccccc1` | 9.396% |
| `O=C(Nc1nc2ccccc2[nH]1)C1CCCO1` (centres undefined) | 2.179% |
| `COCCCNC(=O)c1coc(Br)c1` | 54.82% |
| `O=C(Nc1cncc(Br)c1O)c1cncc(F)c1` | -4.813% |
| `CN(C)C(=O)c1csc2c1CCCC2` | 50.42% |
| `Cc1n[nH]cc1CNCC(C)(C)O` | -1.188% |
| `COC(=O)N(C)CC(=O)NC(CO)Cc1ccccc1` (centres undefined) | -11.53% |
| `CCNC(=O)CNc1ccc(Br)cc1` | 73.91% |
| `NC1CCCc2ccc(F)cc21` (centres undefined) | -24.46% |
| `Cc1cc(NC(=O)NC2CCOC2)n(C(C)C)n1` (centres undefined) | 11.33% |
| `CC1CCN(C(=O)c2cnn(-c3cccnc3)c2)CC1` | 60.92% |
| `CCOc1cccc(CN2C(=O)CCC2=O)n1` | 14.85% |
| `CCc1nccn1CCN1CCCC(NC(C)=O)C1` (centres undefined) | -11.58% |
| `CCC(=O)NC1CCCc2nc(N(C)C)ncc21` (centres undefined) | -29.64% |
| `CC(C)Cc1cc(CN)on1` | 16.54% |
| `CC(=O)N1CCOc2ccccc21` | -12.48% |
| `COCC(=O)Nc1ccc(-n2cccn2)nc1` | 3.82% |
| `OC1(Cn2ccnn2)CCNC1` (centres undefined) | -14.15% |
| `CCn1cc(C(=O)NC(C)c2nc(C3CC3)no2)cn1` (centres undefined) | 17.74% |
| `CC(C)n1nnnc1SCC(O)C(F)(F)F` (centres undefined) | 30.82% |
| `CCC(=O)c1cccc(OC)n1` | -2.695% |
| `NC(=O)[C@@H]1Cc2ccccc2N1C(=O)C1CCOCC1` | 3.096% |
| `c1ccc2[nH]c(NCCOCC3CCCO3)nc2c1` (centres undefined) | 12.43% |
| `Cc1n[nH]cc1CNCC(O)COCC(C)C` (centres undefined) | 37.24% |
| `Cc1cc(CNC(=O)N2CCSCC2)nc(C)n1` | -1.559% |
| `NCc1cn2cc(Cl)ccc2n1` | -3.086% |
| `CCOC(=O)C1CCc2sc(N)c(C#N)c21` (centres undefined) | 11.42% |
| `CN(C(=O)c1n[nH]c2ccccc12)[C@H]1COC[C@@H]1O` | 4.96% |

The values are deposited in ChEMBL (CHEMBL3988442, “University of Dundee, Small-Polar-MMV Screening Library” (2021)).